Laboratory results reported in PubChem BioAssay AID1430 (University of Pittsburgh Molecular Library Screening Center, 2008).
This is a selection; strong and weak results do not stand in their true shares. Calls of active or inactive are those of the source.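 How the source made its calls: active means inhibition of 50% or more in the single-dose primary screen; inactive means inhibition below 50%.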

These molecules were tested on hexokinase 1 [Trypanosoma brucei] (assay: Trypanosoma brucei hexokinase 1 inhibitors, primary screen, biochemical, G6PDH-coupled NADH absorbance, MLSCN library (AID 1430)). Conditions: recombinant TbHK1, G6PDH-coupled NADH A340; at 10 µM; stronger effect = higher value.

Row | SMILES | inhibition
1 | O=C(NCC1(N2CCOCC2)CCCCC1)c1cc2ccccc2o1 | inactive: 0.907%
2 | CCOC(=O)N1CCC(Nc2ccc(OC)cc2)CC1 | inactive: 5.62%
3 | N#CC1(Nc2ccccc2)CCN(Cc2ccccc2)CC1 | inactive: -6.83%
4 | O=C(OC1CN2CCC1CC2)C1c2ccccc2Oc2ccccc21 (centres undefined) | inactive: 2.35%
5 | COc1ccc(C(=O)NCC2(N3CCCCC3)CCCCC2)c(OC)c1OC | inactive: -3.73%
6 | Cc1ccc(OCC(C)C)c(CN(CCCl)CCCl)c1 | inactive: -1.75%
7 | CCOc1ccc(C)cc1CN(CCCl)CCCl | inactive: -2.67%
8 | COc1ccc(NC2CCN(CCc3ccccc3)CC2)c(OC)c1 | inactive: 0.705%
9 | COc1ccc(NC2CCN(C(=O)OC(C)(C)C)CC2)cc1 | inactive: -3.54%
10 | CN1CCN(CCOC(=O)C(O)(c2ccccc2)c2ccccc2)CC1 | inactive: 14.7%
11 | O=C(NCC1(N2CCOCC2)CCCCC1)c1cc(=O)[nH]c2ccccc12 | inactive: -11.9%
12 | O=C(NCC1(N2CCCCC2)CCCCC1)c1cccc([N+](=O)[O-])c1 | inactive: -2.44%
13 | N#CC1(Nc2ccccc2)CCN(CCc2ccccc2)CC1 | inactive: 0.79%
14 | CN1CCC(Nc2cccc(F)c2)CC1 | inactive: -3.23%
15 | CN(C)c1cccc(C(=O)NCC2(N3CCCCC3)CCCCC2)c1 | inactive: -0.541%
16 | COc1ccc(CN(CCCl)CCCl)cc1Cl | inactive: 0.783%
17 | CC(C)c1ccc(NC2CCN(C(=O)OC(C)(C)C)CC2)cc1 | inactive: -4.57%
18 | N/C(=N\O)c1c(N)no[n+]1[O-] | inactive: 19.9%
19 | O=C(OC1CN2CCC1CC2)C1c2ccccc2C=Cc2ccccc21 (centres undefined) | inactive: 6.32%
20 | COc1ccc(C(=O)NCC2(N3CCOCC3)CCCCC2)cc1OC | inactive: -7.86%
21 | c1ccc(CN2CCC(Nc3ccccc3)CC2)cc1 | inactive: 15.4%
22 | N#Cc1ccc(C(=O)NCC2(N3CCCCC3)CCCCC2)cc1 | inactive: -2.98%
23 | CCN1CCC(Nc2cccc(F)c2)CC1 | inactive: 1.78%
24 | CN(C)c1ccc(C(=O)NCC2(N3CCCCC3)CCCCC2)cc1 | inactive: 1.22%
25 | CCC(CO)(C(=O)OC1CN2CCC1CC2)c1ccccc1 (centres undefined) | inactive: 2.35%
26 | COc1cc(OC)cc(C(=O)NCC2(N3CCOCC3)CCCCC2)c1 | inactive: -5.69%
27 | CCCOc1ccc(C)cc1CN(CCCl)CCCl | inactive: 0.988%
28 | CCOc1ncccc1C(=O)NCC1(N2CCOCC2)CCCCC1 | inactive: 4.23%
29 | CC(C)(C)OC(=O)N1CCC(Nc2ccccc2)CC1 | inactive: -1.98%
